Measured values: US20110135634A1, “METHODS OF INHIBITING INFECTION BY DIVERSE SUBTYPES OF DRUG-RESISTANT HIV-1” (priority 2007, published 2011)

Amino acid sequences for entries named in this document (tags omitted).
UniProt P51681, whole entry: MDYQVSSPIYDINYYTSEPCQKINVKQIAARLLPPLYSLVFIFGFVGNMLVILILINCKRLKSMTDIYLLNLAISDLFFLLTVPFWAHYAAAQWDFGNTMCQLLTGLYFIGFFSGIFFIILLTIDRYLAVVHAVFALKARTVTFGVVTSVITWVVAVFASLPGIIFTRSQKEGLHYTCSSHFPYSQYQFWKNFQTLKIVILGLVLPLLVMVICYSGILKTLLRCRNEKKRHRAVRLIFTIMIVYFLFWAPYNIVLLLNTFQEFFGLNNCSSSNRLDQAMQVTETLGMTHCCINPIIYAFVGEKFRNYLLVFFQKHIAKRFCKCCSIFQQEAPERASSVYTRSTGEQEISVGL

Biological target: T1, CCR5 on CEM.NKR-CCR5 cells (Homo sapiens, UniProt P51681)
T1 construct: host or cells: CEM.NKR-CCR5 (transduced human T cell leukemia line)
Experiment: Competition binding: inhibition of PRO 140-PE binding
Conditions: based on MFI data; 5 nM PRO 140-PE
Experimental: Azide was added to block CCR5 internalization during the assay. Cells were washed in PBSA and incubated with 5nM PRO 140-PE for an additional 30 minutes prior to washing and analysis by flow cytometry using a FACSCalibur instrument (Becton Dickinson). The extent of PRO 140-PE binding was measured in terms of both the mean fluorescence intensity (MFI) and the percent of cells gated for positive staining.

B1: PRO 140: humanized IgG4,κ anti-CCR5 mAb being developed for HIV-1 therapy (antibody, chains of the INN, looked up, V domains shown)
VH: EVQLVESGGGLVKPGGSLRLSCAASGYTFSNYWIGWVRQAPGKGLEWIGDIYPGGNYIRNNEKFKDKTTLSADTSKNTAYLQMNSLKTEDTAVYYCGSSFGSNYVFAWFTYWGQGTLVTVSS
VL: DIVMTQSPLSLPVTPGEPASISCRSSQRLLSSYGHTYLHWYLQKPGQSPQLLIYEVSNRFSGVPDRFSGSGSGTDFTLKISRVEAEDVGVYYCSQSTHVPLTFGQGTKVEIK
  EC50: 2.5 nM
